{"source": "patent US20230233665A1", "molecular_target": "ACE2-Fc (UniProt Q9BYF1)", "data": [{"substance": "RBD protein of the present invention (SARS-CoV-2 S protein receptor-binding domain, amino acids 319-545) (from UniProt P0DTC2 319-545) (ligand; other documents disagree on this pair)", "values": [{"measurement": "Kd", "result": 15.2, "unit": "nM"}, {"measurement": "koff", "result": 0.0441, "unit": "s⁻¹"}, {"measurement": "kon", "result": "3.85e+06", "unit": "M⁻¹ s⁻¹"}]}]}
